Results of unrelated studies side by side (data: NIAID ChemDB).

Common to all: whole-cell or culture tests; agent: Hepatitis B virus; method: PCR; read-out: EC50

a–b is a range or a potency band. Rows are shuffled and stem from different studies. ECn is the concentration giving n% inhibition of infection, replication or growth.

SMILES	cells	value
Cn1nc2cc(NS(=O)(=O)c3cnn(-c4nccc(N)n4)c3)ccc2c1C(=O)Nc1ccc(F)c(Cl)c1	HepAD38	100–1000 µM
CCNC(=O)C(=O)N1CCC(NS(=O)(=O)c2cn(C)c(C(=O)Nc3ccc(F)c(F)c3)c2F)C(C)C1	HepAD38 cells	<0.1 µM
Cn1nc2cc(NS(=O)(=O)c3cnn(-c4cccnc4)c3)ccc2c1C(=O)Nc1ccc(F)c(Cl)c1	HepAD38	<100 µM
C#CC1(NC(=O)C(=O)c2c(C)c(C(=O)Nc3ccc(Br)c(Cl)c3)n(C)c2C)CC(F)(F)C1	HepG2.2.15	0.001–0.0099 µM
COc1ccc(-n2c(C(=O)NCC(C)C)c3n(c2=O)CCN(C(=O)c2ccc(C)c(Cl)c2)C3)cc1.Cl	HepG2.117	>5 µM
Cn1nc2cc(NS(=O)(=O)c3cnn(-c4ncccc4Cl)c3)ccc2c1C(=O)Nc1ccc(F)c(Cl)c1	HepAD38	<100 µM
C#C[C@H](NC(=O)C(=O)c1c(C)c(C(=O)Nc2ccc(F)c(C#N)c2)n(C)c1C)C(C)(C)C	HepG2.2.15	<0.001 µM
COC1CCC(n2c(C(=O)N[C@H](C)c3ccccc3)c3n(c2=O)CCN(C(=O)c2ccc(Br)c(Cl)c2)C3)CC1	HepG2.117	>5 µM
Cn1cc(S(=O)(=O)N[C@@H]2CCN(C(=O)C(=O)NC3CC3)C2)c(F)c1C(=O)Nc1ccc(F)c(F)c1	HepAD38 cells	<0.1 µM
NC(=O)COc1ccc(CNC(=O)c2c3n(c(=O)n2-c2ccc(OCC(F)(F)F)cc2)CCN(C(=O)c2ccc(Br)c(Cl)c2)C3)c(F)c1	HepG2.117	0.5–5 µM
Cc1c(C(=O)C(=O)NC(C)(C)c2nccs2)c(C)n(C)c1C(=O)Nc1ccc(F)c(C(F)(F)F)c1	HepG2.2.15	0.001–0.0099 µM
COc1ccc(-n2c(C(=O)N[C@@H](C)c3ccccc3)c3n(c2=O)CCN(C(=O)c2ccc(Br)c(Cl)c2)C3)cc1	HepG2.117	>0.5 µM
CN(C1CC1)S(=O)(=O)Nc1ccc2c(C(=O)Nc3ccc(F)c(Cl)c3)n(C)nc2c1	HepAD38	100–1000 µM
COc1ccc(CNC(=O)c2c3n(c(=O)n2-c2ccc(OC(C)C)cc2)CCN(C(=O)c2ccc(Br)c(Cl)c2)C3)c(OC)c1	HepG2.117	0.1–0.5 µM
Cn1nc2cc(NS(=O)(=O)c3ccn(-c4cccnc4)n3)ccc2c1C(=O)Nc1ccc(F)c(Cl)c1	HepAD38	100–1000 µM
Cc1c(C(=O)C(=O)NC(C)(C)c2cccnc2)c(C)n(C)c1C(=O)Nc1ccc(F)c(C(F)(F)F)c1	HepG2.2.15	<0.001 µM
CNC(=O)C(=O)N1CC[C@@H](NS(=O)(=O)c2c(Cl)c(C(=O)Nc3cc(F)c(F)c(F)c3)n3c2CCC3)C1	HepAD38 cells	0.1–0.3 µM
Cn1nc2ccc(NC(=O)OCc3cccc(F)c3)cc2c1C(=O)Nc1ccc(F)c(Cl)c1	HepAD38	>1000 µM
Cn1cc(S(=O)(=O)NC2CCN(C(=O)C(N)=O)CC2)c(F)c1C(=O)Nc1cc(F)c(F)c(F)c1	HepAD38 cells	<0.1 µM
COc1ccc(-n2c(C(=O)NCc3ccccc3)c3n(c2=O)C[C@H](C)N(C(=O)c2ccc(Br)c(Cl)c2)C3)cc1	HepG2.117	0.1–0.5 µM
Cn1nc2cc(C(=O)NC[C@H](O)CO)ccc2c1C(=O)Nc1ccc(F)c(Cl)c1	HepAD38	>1000 µM

For reference, 2 entries again:

SMILES,cells,value
C#CC1(NC(=O)C(=O)c2c(C)c(C(=O)Nc3ccc(Br)c(Cl)c3)n(C)c2C)CC(F)(F)C1,HepG2.2.15,0.001–0.0099 µM
NC(=O)COc1ccc(CNC(=O)c2c3n(c(=O)n2-c2ccc(OCC(F)(F)F)cc2)CCN(C(=O)c2ccc(Br)c(Cl)c2)C3)c(F)c1,HepG2.117,0.5–5 µM